A mixed list of measured activities; the numbers were collected in NIAID ChemDB.

All rows: toxicity to cultured cells; read-out: CC50

Blank or dashed fields: not listed here. CCn is the concentration with n% toxicity to the cells. Conditions beyond the fields shown may differ between rows.

compound	method	cell line	result
O=C(NCC1CCNC1)c1c(O)c2cccnc2n(O)c1=O		HeLa	<100 µM
O=C(NCCc1ccc2c(n1)NCCC2)Nc1cccc2c1CCN2		PBMC	7.5 µM
O=C1NNC(=O)c2c(ncn2[C@@H]2O[C@H](CO)[C@@H](O)[C@H]2O)N1		HFF (dividing cells)	>100 µM
NC(=S)Nc1cccc(OCCCCCOc2cccc(C(=O)c3ccccc3)c2)c1	MTS	Ava5-EG(delta4AB)SEAP	>1 µM
CCOC(=O)[C@@]1(C)CC[C@]2(C)CC[C@]3(C)C(=CC(=O)[C@@H]4[C@@]5(C)CC/C(=N\OCc6ccc(C)cc6)C(C)(C)[C@@H]5CC[C@]43C)[C@@H]2C1	MTT	CT26	25.62 µM
CS(=O)(=O)Cc1nsc(C(=O)NC23CC(c4nc(-c5ccc(Cl)cc5)no4)(C2)C3)n1	absorbance	Primary human hepatocytes	>22.73 µM
CC(C)C[C@@H]1NC(=O)[C@H](Cc2c[nH]c3ccccc23)NC(=O)[C@@H](CCCCN)NC(=O)[C@H](CC(C)C)NC(=O)[C@H](C(C)C)NC(=O)[C@@H](CC(C)C)NC1=O	MTT	Colorectal carcinoma	>30 µM
O=[N+]([O-])c1c(Cl)nc(C(F)(F)F)nc1N1CC[N+]2(CC1)CC[N+]1(CCN(c3nc(C(F)(F)F)nc(Cl)c3[N+](=O)[O-])CC1)CC2		L929	>261 µg/mL
Cc1cccnc1CN(C)Cc1nc2nccc(N3CCN(C)CC3)c2[nH]1	MTT	C8166	>10 µM
CCOC(=O)[C@@]1(C)CC[C@]2(C)CC[C@]3(C)C(=CC(=O)[C@@H]4[C@@]5(C)CC/C(=N\OCc6ccc(C(=O)OC)o6)C(C)(C)[C@@H]5CC[C@]43C)[C@@H]2C1	MTT	CT26	31.28 µM
O=C(NCCc1ccc2c(n1)NCCC2)Nc1c(F)cc(Br)cc1F		PBMC	20 µM
COc1cc(OCCCCCOc2cccc(NC(N)=S)c2)cc(OC)c1OC	MTS	Ava5-EG(delta4AB)SEAP	>1 µM
O=C(NCCc1ccc2c(n1)NCCC2)Nc1cccc(F)n1		PBMC	50 µM
O=c1cc(N2CCN(Cc3ccccc3)CC2)c2cccnc2n1O		HeLa	<100 µM
CCOC(=O)[C@@]1(C)CC[C@]2(C)CC[C@]3(C)C(=CC(=O)[C@@H]4[C@@]5(C)CC/C(=N\OCc6cccc(F)c6)C(C)(C)[C@@H]5CC[C@]43C)[C@@H]2C1	MTT	K562	15.32 µM
NC(=S)Nc1cccc(OCCCCOc2ccccc2-c2ccccc2)c1	MTS	Ava5-EG(delta4AB)SEAP	>1 µM
Cc1cn(-c2cccc(CCNC(=O)NCc3ccc(Cl)c(Cl)c3)n2)cn1		PBMC	50 µM
CCOC(=O)[C@@]1(C)CC[C@]2(C)CC[C@]3(C)C(=CC(=O)[C@@H]4[C@@]5(C)CC/C(=N\OCc6ccc7ccccc7c6)C(C)(C)[C@@H]5CC[C@]43C)[C@@H]2C1	MTT	CT26	71.43 µM
O=[N+]([O-])c1c(N2CC[N+]3(CC2)CC[N+]2(CCNCC2)CC3)ncnc1N1CC[N+]2(CC1)CC[N+]1(CCNCC1)CC2		L929	>232.4 µg/mL
O=c1cc(N[C@H]2CCN(Cc3ccccc3)C2)c2cccnc2n1O		HeLa	<100 µM
NC(=S)Nc1cccc(OCCCCCCCOc2ccccc2)c1	MTS	Ava5-EG(delta4AB)SEAP	>1 µM
CS(=O)(=O)C1(c2ccc(C(=O)NC34CC(c5ccn(-c6ccc(Cl)cc6)n5)(C3)C4)o2)CC1	absorbance	Primary human hepatocytes	13.39 µM
O=c1c(-c2ccccc2)c(O)c2cc(-c3ccccc3)cnc2n1O		HeLa	<100 µM
Cc1ccsc1CN(CCCCN)Cc1nc2nccc(N3CCN(C)CC3)c2[nH]1	MTT	C8166	>10 µM
O=C(Nc1ccc(Cl)c(Cl)c1)Nc1ccc2c(c1)CCC2		PBMC	50 µM
CC(C)C[C@@H]1NC(=O)[C@H](Cc2ccccc2)NC(=O)[C@@H](CCCCN)NC(=O)[C@H](CC(N)=O)NC(=O)[C@H](C(C)C)NC(=O)[C@@H](CC(C)C)NC1=O	MTT	Lung carcinoma cells	>30 µM
NC(=S)Nc1cccc(OCCCCCOc2c(Cl)cccc2Cl)c1	MTS	Ava5-EG(delta4AB)SEAP	>1 µM
CN1CCN(c2ccnc3nc(CN(CCCCN)Cc4c(O)cc(Cl)cc4Cl)[nH]c23)CC1	MTT	C8166	>10 µM
COc1cc(NC(=O)NCCc2ccc3c(n2)NCCC3)cc(OC)c1OC		PBMC	7.4 µM
CC(C)C[C@@H]1NC(=O)[C@H](Cc2c[nH]c3ccccc23)NC(=O)[C@@H](CCCCN)NC(=O)[C@H](CC(=O)O)NC(=O)[C@H](C(C)C)NC(=O)[C@@H](CC(C)C)NC1=O	MTT	Lung carcinoma cells	>30 µM
O=[N+]([O-])c1cncnc1N1CC[N+]2(CC1)CC[N+]1(CCN(c3ncncc3[N+](=O)[O-])CC1)CC2		K562	>369.4 µg/mL
CN1CCN(c2ccnc3nc(CN(CCCCN)Cc4ccccc4C#N)[nH]c23)CC1	MTT	C8166	>10 µM
CC(C)C[C@@H]1NC(=O)[C@H](Cc2c[nH]c3ccccc23)NC(=O)[C@@H](CCCCN)NC(=O)[C@H](CC(N)=O)NC(=O)[C@H](C(C)C)NC(=O)[C@@H]2CCCN2C1=O	MTT	Lung carcinoma cells	>30 µM
COc1cc(OC)c(NC(=O)NCC2CCc3ccccc3N2)cc1Cl		PBMC	50 µM
NC(=S)Nc1cccc(OCCCCCOc2ccccn2)c1	MTS	Ava5-EG(delta4AB)SEAP	>1 µM
CCOC(=O)[C@@]1(C)CC[C@]2(C)CC[C@]3(C)C(=CC(=O)[C@@H]4[C@@]5(C)CC/C(=N\OCc6cnc(Cl)s6)C(C)(C)[C@@H]5CC[C@]43C)[C@@H]2C1	MTT	CT26	12.29 µM
CS(=O)(=O)C1(c2ccc(C(=O)NC34CC(c5nc(-c6ccc(Cl)cc6)cs5)(C3)C4)o2)CC1	absorbance	Primary human hepatocytes	27.88 µM
Nc1c(N2CC[N+]3(CC2)CC[N+]2(CCN(c4nc[nH]c(=O)c4N)CC2)CC3)nc[nH]c1=O		GMK	>659.6 µg/mL
Nc1nc2c(ncn2COC(CO)CO)c(=O)[nH]1	cell count	P3HR-1	>700 µM
CS(=O)(=O)C1(c2nsc(C(=O)NC34CC(c5ccn(-c6ccc(Cl)cc6)n5)(C3)C4)n2)CC1	absorbance	Primary human hepatocytes	>111 µM
NC(=S)Nc1cccc(OCCCCCNc2ccccc2C2CCCCC2)c1	MTS	Ava5-EG(delta4AB)SEAP	>1 µM
Cc1ccc(Cl)c(NC(=O)NCCc2ccc3c(n2)NCCC3)c1		PBMC	12 µM
Nc1nc(=O)n([C@H]2C[C@H](O)[C@@H](CO)O2)cc1/C=C/Cl	cell count	RF	469 µM
CCOC(=O)[C@@]1(C)CC[C@]2(C)CC[C@]3(C)C(=CC(=O)[C@@H]4[C@@]5(C)CC/C(=N\OCc6ccc(Cl)cc6)C(C)(C)[C@@H]5CC[C@]43C)[C@@H]2C1	MTT	CT26	14.33 µM
CCc1cn([C@H]2C[C@H](O)[C@@H](CO)O2)c(=O)[nH]c1=O	cell count	NIH 3T3	17 µM
CC(C)C[C@@H]1NC(=O)[C@H](Cc2c[nH]c3ccccc23)NC(=O)[C@@H](CCCCN)NC(=O)[C@H](CCC(N)=O)NC(=O)[C@H](CC(C)C)NC(=O)[C@@H](CC(C)C)NC1=O	MTT	Lung carcinoma cells	>30 µM
NC1=NC2C(C=CN2CC(CO)CCO)C(=O)N1	cell count	RF	>200 µM
Cc1noc(-c2ccccc2)c1NC(=O)NCCc1ccc2c(n1)NCCC2		PBMC	50 µM
O=c1c(-c2ccc(Cl)cc2)c(O)c2cccnc2n1O		HeLa	<100 µM

6 of the rows above, restated:

compound,method,cell line,result
Nc1nc(=O)n([C@H]2C[C@H](O)[C@@H](CO)O2)cc1/C=C/Cl,cell count,RF,469 µM
NC(=S)Nc1cccc(OCCCCCNc2ccccc2C2CCCCC2)c1,MTS,Ava5-EG(delta4AB)SEAP,>1 µM
CS(=O)(=O)Cc1nsc(C(=O)NC23CC(c4nc(-c5ccc(Cl)cc5)no4)(C2)C3)n1,absorbance,Primary human hepatocytes,>22.73 µM
CS(=O)(=O)C1(c2ccc(C(=O)NC34CC(c5nc(-c6ccc(Cl)cc6)cs5)(C3)C4)o2)CC1,absorbance,Primary human hepatocytes,27.88 µM
CN1CCN(c2ccnc3nc(CN(CCCCN)Cc4c(O)cc(Cl)cc4Cl)[nH]c23)CC1,MTT,C8166,>10 µM
O=c1cc(N[C@H]2CCN(Cc3ccccc3)C2)c2cccnc2n1O,,HeLa,<100 µM